Laboratory results published in US7407783B2, “Fructosylamine oxidase” (priority 2002, dated 2008).

Molecular target: FAO-Q1 (Fusarium proliferatum, UniProt A0A1L7VP54)
Assay: Substrate specificity of FAO-Q1 (FAO activity, rate method, H2O2 colorimetry)
Type: biochemical
Description: Titration of enzyme can be performed by a method known in the art (e.g., kinetic method), for example, that described in Example 1 (3). In this method, hydrogen peroxide generated by the reaction of an FAO with a glycated amino acid or peptide is measured on the basis of absorbance (505 nm) of quinone pigment produced in the presence of hydrogen peroxide. The amount (μmole) of hydrogen peroxide generated per minute is calculated on the basis of molar absorptivity (5.16×10^3 M^−1 cm^−1) of quinone pigment and the resultant numerical value is taken as a unit (U) of enzyme activity.
FAO activity of the crude enzyme solution was determined by the aforementioned rate method. The time-course of generation of hydrogen peroxide in the reaction mixture below was measured by a colorimetric method, and FAO activity was evaluated.
A mixture (total 3 ml) except for the enzyme solution was equilibrated at 30° C. After adding the enzyme solution, the time-course of absorbance at 505 nm was measured. The amount (μmole) of hydrogen peroxide generated per minute was calculated on the basis of molar absorptivity (5.16×10^3 M^−1 cm^−1) of quinone pigment produced, and the resultant numerical value was taken as a unit(U) of enzyme activity. […]
The substrate specificity of the enzymes (FAO-Q1, FAO-Q2) contained in 2 fractions separated in (1), 3) above was determined. […]

fructosyl valine-leucine (VL) [FVL]
Activity of FAO-Q1 on the substrate (in words): active | Relative activity (%) FAO-Q1 (activity of FAO-Q1 on the substrate, FV = 100): 1.1%
